Compound potency records, mixed from different reports. Data source: NIAID ChemDB in PubChem.

All rows: tests in culture; agent: Mycobacterium tuberculosis

MIC50, MIC90 and the like: level of inhibition, or share of isolates inhibited. Percent inhibition refers to the dose given; in toxicity tests it is the harm to the cells. ECn is the concentration giving n% inhibition of infection, replication or growth. Lines come from different laboratories, so protocols vary. MIC bound comes from a single tested concentration. Blank or dashed fields: not listed here.

smiles,conditions,strain,dose,measure,read by,cell line,result
COC(=O)/C(=C\c1ccccc1Br)Oc1cccc(C(=O)OC)c1O,,,,EC50,resazurin,,95 µM
Cc1c(CN2CCSCC2)cc(-c2ccccc2)n1-c1ccccc1,,103471,,MIC,,,1 µg/mL
O=C(CCC(=O)Nc1ccccc1)Nc1ccccc1,,H37Rv,,MIC,,,500 µM
COC(=O)/C(=C\c1cccc(C(F)(F)F)c1)Oc1cccc(C(=O)OC)c1O,,,,EC50,resazurin,,180 µM
CO[C@H]1/C=C/O[C@@]2(C)Oc3c(C)c(O)c4c(O)c(c(/C=N/N5CCN(C)CC5)c(O)c4c3C2=O)NC(=O)/C(C)=C\C=C\[C@H](C)[C@H](O)[C@@H](C)[C@@H](O)[C@@H](C)[C@H](OC(C)=O)[C@@H]1C,,V2475,,MIC,,,0.39 µM
COc1c2ccoc2nc2c(OC)cccc12,,H37Rv,,MIC,broth dilution / resazurin,,140 µM
CCOC(=O)/C(C(=N)c1nc(C)c(C(=O)OCC)c(C(N)=O)n1)=C(/C)O,,H37Rv,,MIC bound,resazurin,,>6.25 µg/mL
O=C1/C(=C/c2ccc(Br)cc2)c2ccccc2[C@]12[C@@H](c1ccc(Br)cc1)C1CCCN1[C@]21C(=O)N(Cc2ccc([N+](=O)[O-])cc2)c2ccccc21,,,,MIC,visual reading,,6.25 µg/mL
CCOC(=O)c1c(O)c(-c2ccccc2)c(=O)n2c1CCC2,,H37Ra,,MIC,,,256 µg/mL
CCOc1ccccc1CNCCNCc1ccc(OC(F)(F)F)cc1,,,,MIC,,,50 µM
C=C1CCCC(C)(C)[C@H]1CC/C(C)=C/CC/C(C)=C/Cn1c[n+](C)c2ncnc(N)c21,,,6.25 µg/mL,inhibition,,,61%
Cc1ccc(NC(=O)NCc2ccco2)cc1[N+](=O)[O-],,H37Rv,,MIC bound,BACTEC,,>12.5 µg/mL
Cc1c(CN2CCN(C)CC2)cc(-c2ccccc2)n1-c1ccccc1Cl,,103471,,MIC,,,>16 µg/mL
COC(=O)Nn1cc(C(C(C)=O)C(C)=O)c(C(C)=O)c1C,,H37Rv,,MIC bound,resazurin,,>6.25 µg/mL
Cc1c(CN2CCN(C)CC2)cc(-c2ccccc2)n1-c1ccccc1F,,103471,,MIC,,,>16 µg/mL
O=C(CNNc1ccc([N+](=O)[O-])cn1)Nc1ccc(S(=O)(=O)c2ccc(NC(=O)CNNc3ccc([N+](=O)[O-])cn3)cc2)cc1,,H37Rv,,MIC,BACTEC,,≥12.5 µg/mL
CC(C)(C)CC(C)(C)NCCNCC(c1ccccc1)c1ccccc1,,,,MIC,,,18.8 µM
CCCCCCCCCCCCCCCCN1CSC(=S)N(Cc2ccccc2)C1,,H37Rv,,MIC,,,50 µg/mL
Cc1c(CN2CCN(C)CC2)cc(-c2ccccc2)n1-c1ccc(F)cc1,,103471,,MIC,,,0.7 µg/mL
CC(C)C[C@@H](CO)NCCNC[C@]1(C)CCC[C@]2(C)c3ccc(C(C)C)cc3CC[C@@H]12,,,,MIC,,,25 µM
COC(=O)C(=O)C(C(=O)C1=NS(=O)(O)=c2cc(S(N)(=O)=O)c(Cl)cc2=N1)c1nc2ccc(C(=O)c3ccccc3)cc2[nH]c1=O,,H37Rv,,MIC,BACTEC,,>12.5 µg/mL
CCOC(=O)/C=C\C(=O)c1cc2ccccc2s1,,,,MIC,,,0.4 µM
COc1cc2c(cc1OC)CN(CNC(=O)c1nc([N+](=O)[O-])cn1C)CC2,,H37Rv,,MIC90,,,>200 µg/mL
O=C1/C(=C/c2ccc(Cl)cc2)c2ccccc2[C@@]12[C@H](c1ccc(Cl)cc1)C1CCCN1[C@]21C(=O)Nc2ccc([N+](=O)[O-])cc21,,,,MIC,visual reading,,12.5 µg/mL
CCCCc1ccc(NC(=O)CCC(=O)Nc2ccc(CCCC)cc2)cc1,,H37Rv,,MIC,,,500 µM
CCCCN(C)CCNc1cc(C)nc(Nc2nc3ccc(Cl)cc3[nH]2)n1,,H37Rv,,MIC bound,resazurin,,<6.25 µg/mL
COc1ccc(CNC(=O)c2ccc([N+](=O)[O-])o2)c(OC)c1,,H37Rv,,MIC90,,,0.8 µg/mL
CN(C)c1ccc(/C=N/NC(=O)c2cnc3ccccc3c2)cc1,,H37Rv,,MIC,BACTEC,,≥12.5 µg/mL
O=C(Cc1cccs1)N/N=C/c1cccc([N+](=O)[O-])c1O,,H37Rv (ATCC 27294),,MIC,resazurin,,327.5 µM
O=C(O)CCN1CSC(=S)N(C2CC2)C1,,H37Rv,,MIC,,,12.5 µg/mL
O=C(Nc1ccncc1)c1ccc([N+](=O)[O-])o1,,H37Rv,,MIC90,,,6.25 µg/mL
O=C(CCC(=O)Nc1ccc(F)cc1)Nc1ccc(F)cc1,,H37Rv,,MIC,,,250 µM
Cn1cc([N+](=O)[O-])cc1C(=O)Nc1ccccc1,,H37Rv,,MIC90,,,>200 µg/mL
CC(NCCNCc1ccc(C(F)(F)F)cc1)c1cccc2ccccc12,,,,MIC,,,12.5 µM
CCCC(=O)OCc1cc(=O)n(C)c2c3c4c(cc12)c(C)cc(=O)n4CO3,,H37Rv,,MIC,,VERO,<0.1 µg/mL
N#Cc1cccc(/C=N/NC(=O)Cc2cccs2)c1,,H37Rv (ATCC 27294),,MIC,resazurin,,>100 µg/mL
C[N+](C)(C)CC(=O)N/N=C(\C(=O)Nc1ccc(Cl)cc1)C1C(=O)N(c2ccccc2)N=C1N,,H37Rv,6.25 µg/mL,inhibition,resazurin,,7%
COc1cccc(NC(=O)c2ccc(S(C)(=O)=O)o2)c1,,H37Rv,,MIC90,,,200 µg/mL
COC(=O)/C(=C\c1ccccc1Cl)Oc1cccc(C(=O)OC)c1O,,,,EC50,resazurin,,118 µM
COC(=O)C1(C)CCCC2(C)C1CCC1(O)C(O)C(C(C)C)=CCC21,,H37Rv,,MIC bound,BACTEC,,>12.5 µg/mL
COc1ccc(CNC(=O)c2cc([N+](=O)[O-])cn2C)cc1OC,,H37Rv,,MIC90,,,>200 µg/mL
COc1ccc(CCNCCNCc2ccc(OC)cc2OC)cc1,,,,MIC,,,12.5 µM
COC(=O)/C(=C\c1cccc(Cl)c1)Oc1cccc(C(=O)OC)c1O,,,,EC50,resazurin,,204 µM
Cc1ccccc1Nc1nnc(-c2ccc(NC(=S)Nc3ccccc3)cc2)s1,,H37Rv,,MIC,,,>6.25 µg/mL
COC(=O)c1cc(CC2Cc3cc4c(cc3C2=O)CCC4)cc2c1CCC2,,H37Rv,,MIC bound,BACTEC,,>12.5 µg/mL
COC(=O)/C(=C\c1ccc(Cl)cc1)Oc1cccc(C(=O)OC)c1O,,,,EC50,resazurin,,203 µM
COc1ccc2c(c1OC)C(=O)O[C@@H]2[C@H]1c2cc3c(cc2CCN1C)OCO3,,H37Rv,,MIC,BACTEC,,≥128 µg/mL
CCC1CN(c2c(F)cc3c(=O)c(C(=O)O)cn(C4CC4)c3c2OC)CCN1,,TN1626 (WILD TYPE),,MIC,,,0.3 µg/mL
COC(=O)/C(=C\c1ccccc1OC(C)=O)Oc1cccc(C(=O)OC)c1O,,,,EC50,resazurin,,89 µM
CC(C)[C@H](NC(=O)[C@@H]1CCCN1C(=O)OCc1ccccc1)C(=O)O,,H37Rv,12.5 µg/mL,inhibition,BACTEC,,0%
O=C(Cc1cccs1)N/N=C/c1ccc(F)cc1,,H37Rv (ATCC 27294),,MIC,resazurin,,>100 µg/mL
CCC1CN(c2cc3c(cc2F)c(=O)c(C(=O)O)cn3C2CC2)CCN1,,TN565 (D94H),,MIC,,,5 µg/mL
CC(C)c1ccc2c(c1)CC[C@H]1[C@](C)(CNCCNCCc3cccc(F)c3)CCC[C@]21C,,,,MIC,,,12.5 µM
O=C(Cc1cccs1)N/N=C/c1cccc([N+](=O)[O-])c1,,H37Rv (ATCC 27294),,MIC,resazurin,,>100 µg/mL
Cc1c(CN2CCSCC2)cc(-c2ccccc2)n1-c1cccc2ccccc12,,103471,,MIC,,,>16 µg/mL
Cc1ccc(NC(=O)CCC(=O)Nc2ccc(C)c(C)c2)cc1C,,H37Rv,,MIC,,,500 µM
O=c1c(-c2ccccc2)c(O)c(-c2ccc(Cl)cc2)c2n1CCC2,,H37Ra,,MIC,,,128 µg/mL
CCn1cc(C(=O)O)c(=O)c2cc(F)c(N3CCN(C)CC3)cc21,pH 6.8,,,EC50,,,<10 µg/mL
COC(=O)/C(=C\c1ccc(C)cc1)Oc1cccc(C(=O)OC)c1O,,,,EC50,resazurin,,270 µM
O=c1c(-c2ccccc2)c(O)cc2n1CCC2,,H37Ra,,MIC,,,16 µg/mL
C=C(C)[C@@H]1CC[C@]2(C)[C@H]3CC[C@@H]4[C@@]5(C)[C@@H]6O[C@@H](OC6=O)C(C)(C)[C@@H]5CC[C@@]4(C)[C@]3(C)CC[C@@H]12,,H37Rv,12.5 µg/mL,inhibition,BACTEC,,26%
O=C(O)CCN1CSC(=S)N(C2CCCCC2)C1,,H37Rv,,MIC,,,100 µg/mL
S=C(Nc1ccccc1)Nc1ccc(-c2nnc(NC3CCCCC3)s2)cc1,,H37Rv,,MIC,,,>6.25 µg/mL
NNC(=O)c1ccncc1,,H37Rv (ATCC 27294),,MIC,resazurin,,0.46 µM
CC1(C)OC(=O)N(Cc2ccccc2)C1=O,,H37Rv,,MIC bound,BACTEC,,>12.5 µg/mL
S=C(Nc1ccccc1)Nc1ccc(-c2nnc(Nc3ccccc3)s2)cc1,,H37Rv,,EC50,,,>6.25 µg/mL
CN1C(=O)[C@@]2(c3ccccc31)N1CCCC1[C@@H](c1ccc(Br)cc1)[C@]21C(=O)/C(=C/c2ccc(Br)cc2)c2ccccc21,,,,MIC,visual reading,,25 µg/mL
NNC(=O)c1cnccn1,,H37Rv,12.5 µg/mL,inhibition,BACTEC,,0%
CC(CNCCNCCc1ccc(Cl)cc1Cl)c1ccccc1,,,,MIC,,,25 µM
S=C([S-])NCCCCCCNC(=S)[S-].[K+].[K+],,H37Rv,,MIC,BACTEC,,≥12.5 µg/mL
COC(=O)/C(=C/c1ccccc1)Oc1cccc(C(=O)OC)c1O,,,,EC50,resazurin,,277 µM
COc1ccc(/C=C2/C(=O)[C@]3(c4ccccc42)[C@@H](c2ccc(OC)cc2)C2CCCN2[C@]32C(=O)c3cccc4cccc2c34)cc1,,,,MIC,visual reading,,1.56 µg/mL
COC12CC3(C)C(C4=CC(=O)OC4)CCC3(O)C3CCC4=CC(=O)CCC4(CO1)C32,,H37Rv,12.5 µg/mL,inhibition,BACTEC,,-10%
O=C(Cc1cccs1)N/N=C/c1ccccn1,,H37Rv (ATCC 27294),,MIC,resazurin,,409.8 µM
CC(C)c1ccc(NC(=O)CCC(=O)Nc2ccc(C(C)C)cc2)cc1,,H37Rv,,MIC,,,>1000 µM
CCOC(=O)[C@H]1O[C@@H]([C@@]2(C)O[C@]3(O[C@]4(C=C[C@H]3O)O[C@H]([C@@H](C)C(=O)[C@@H](C)[C@@H](O)[C@H](C)C[C@H](C)c3c(Cl)cc(C)c(O)c3C(=O)O)[C@@H](C)C[C@H]4C)[C@H](C)[C@H]2OC)C[C@H]1O,,PZA-R,,MIC,,,6.3 µg/mL
COc1ccc(Nc2nnc(-c3ccc(NC(=S)Nc4ccccc4)cc3)s2)cc1,,H37Rv,6.25 µg/mL,inhibition,,,5%
CO[C@@H]1[C@@H](OC(=O)c2ccc(C)[nH]2)[C@@H](O)C(Oc2ccc3c(O)c(NC(=O)c4c[nH]c(C(=O)Nc5c(O)c6ccc(OC7OC(C)(C)[C@H](OC)[C@@H](OC(=O)c8ccc(C)[nH]8)[C@H]7O)c(C)c6oc5=O)c4C)c(=O)oc3c2C)OC1(C)C,,RMP-R,,MIC,,,12.8 µg/mL
C[C@@H]1CN(c2c(F)c(N)c3c(=O)c(C(=O)O)cn(C4CC4)c3c2F)C[C@H](C)N1,,TN1626 (WILD TYPE),,EC50,,,0.035 µg/mL
COc1cc(CCC(=O)O)c2c(c1OC)C=CC(C)(C)O2,,H37Rv,,MIC,broth dilution / resazurin,,210 µM
COc1cc(CNCCNCc2ccccc2)cc(OC)c1OC,,,,MIC,,,50 µM
O=C1/C(=C/c2ccc(Br)cc2)c2ccccc2[C@]12[C@@H](c1ccc(Br)cc1)C1CCCN1[C@]21C(=O)Nc2ccc(Cl)cc21,,,,MIC,visual reading,,6.25 µg/mL
O=C(O)c1c(O)cc(=O)n2c1CCC2,,H37Ra,,MIC,,,>256 µg/mL
O=C1/C(=C/c2ccc(Cl)cc2)c2ccccc2[C@]12[C@@H](c1ccc(Cl)cc1)C1CCCN1[C@]21C(=O)Nc2ccc(Cl)cc21,,,,MIC,visual reading,,1.56 µg/mL
CCOC(=O)c1c(O)c(C)c(=O)n2c1CCC2,,H37Ra,,MIC,,,>256 µg/mL